Results on one substance are retold here after paper PMC3984054 (Bioorganic & medicinal chemistry, 2013).

Some results are limits rather than exact numbers.

The data set has as its system dividing ScN2a-cl3 cells.

Consider Dextran, for which the “LC50 ± SEM (cell viability by calcein)” value is on record as >10 (mg/L) and the “effect on cell viability” value is given as “no effects on cell viability”.
